Compound potency records, mixed from different reports. Data source: NIAID ChemDB in PubChem.

Common to all: enzyme or target tests; organism: HIV-1; protein: Reverse transcriptase; endpoint: IC50

ICn: concentration for n% inhibition. An empty or dashed field is not shown. Lines come from different laboratories, so protocols vary.

compound	mutations	strain	method	value
CCc1c(Sc2ccccn2)n(COCc2ccccc2)c(=O)[nH]c1=O	RT-L100I	-	RT activity	0.3 µM
Cc1cn([C@H]2CC[C@@H](CC(F)(F)P(=O)(O)OP(=O)(O)OP(=O)(O)O)O2)c(=O)[nH]c1=O	-	-	fluorescence	~10 µM
Cc1c(Sc2ccccc2)n(COCCO)c(=O)[nH]c1=O	RT-K103N	-	-	>5 µM
O=C(Nc1nnc(-c2ccc3c(c2)CCCC3)o1)C1=COCCO1	Y181C	NL4-3	RT activity / nucleotide incorporation / luminescence	0.79 µM
COC(=O)[C@H](Cc1c[nH]c2ccccc12)NC(=O)OC[C@H]1O[C@@H](n2cc(C)c(=O)[nH]c2=O)C[C@@H]1N=[N+]=[N-]	-	-	radiometric	>100 µM
O=C(Nc1cc(-c2ccc3c(c2)CCCC3)[nH]n1)c1ccc(-c2cncnc2)s1	WT	NL4-3	RT activity / nucleotide incorporation / luminescence	0.45 µM
CC(=O)Oc1c(OC(C)=O)c(C#N)c2c(OC(C)=O)c(-c3c(C)cc4c(C(C)C)c(OC(C)=O)c(OC(C)=O)c(C#N)c4c3OC(C)=O)c(C)cc2c1C(C)C	-	LAV	HPLC	2.7 µM
CC(C)=CCN1Cc2cccc3[nH]c(=S)n(c23)C[C@@H]1C	-	RT-WT	RT activity	0.4 µM
Nc1ccn([C@H]2CC[C@@H](COP(=O)(O)OP(=O)(O)OP(=O)(O)O)O2)c(=O)n1	RT-T215Y K219Q	-	ELISA	4.3 µM
Cc1cc2c(C(C)C)c(O)c(O)c(C=Nc3ccc(C(=O)O)cc3)c2c(O)c1-c1c(C)cc2c(C(C)C)c(O)c(O)c(C=Nc3ccc(C(=O)O)cc3)c2c1O	-	LAV	HPLC	6.2 µM
COc1ccc(S(=O)(=O)N2CCN(C(=O)c3cc(O)c(O)c(O)c3)CC2)cc1	-	BH10	ELISA / nucleotide incorporation	>50 µM
CCCC(=O)c1c(O)c(CC2(C)C(=O)C(C(=O)C(C)CC)=C(O)C(C)=C2O)c(O)c(C)c1OC	-	LAV	HPLC	2 µM
Cc1cn([C@H]2C[C@H](N=[N+]=[N-])[C@@H](CP(=O)(O)OP(=O)(O)NP(=O)(O)O)O2)c(=O)[nH]c1=O	-	-	fluorescence	>10 µM
O=C1CSC2(CCCCC2)N1Cc1ccco1	-	-	ELISA	>10 µg/mL
CC(C)(C)c1ccc(S(=O)(=O)N2CCN(C(=O)c3cc(O)c(O)c(O)c3)CC2)cc1	-	BH10	ELISA / nucleotide incorporation	>50 µM
Nc1ncnc2c1ncn2[C@H]1CC[C@@H](COP(=O)(O)OP(=O)(O)OP(=O)(O)O)O1	RT-L74V	-	ELISA	16.9 µM
Cc1cc(S(N)(=O)=O)ccc1NC(=O)COc1ccc(Cl)cc1C(=O)c1cc(Cl)cc(C#N)c1	-	WT	fluorescence	0.0018 µM
C=C(C)[C@@H]1CC[C@]2(C)CC[C@]3(C)[C@H](CC[C@@H]4[C@@]5(C)CC[C@H](OC(C)=O)C(C)(C)[C@@H]5CC[C@]43C)[C@@H]12	-	-	RT activity / nucleotide incorporation / fluorescence	>100 µM
Cc1cn([C@H]2C[C@H](N=[N+]=[N-])[C@@H](CP(=O)(O)OP(=O)(O)OP(=O)(O)O)O2)c(=O)[nH]c1=O	-	-	fluorescence	>10 µM
CN(C)C(=O)N1CCN(C(=O)c2cc(O)c(O)c(O)c2)CC1	-	BH10	ELISA / nucleotide incorporation	>50 µM
CCc1ccc(N2CC(O)Cn3c2nc2c3c(=O)n(C)c(=O)n2C)cc1	-	-	nucleotide incorporation / absorbance	>100 µM
COC(=O)[C@@H](Cc1ccccc1)NC(=O)OC[C@H]1O[C@@H](n2cc(C)c(=O)[nH]c2=O)C[C@@H]1N=[N+]=[N-]	-	-	radiometric	>100 µM
Cc1cn([C@H]2C=C[C@@H](COP(=O)(O)OP(=O)(O)OP(=O)(O)O)O2)c(=O)[nH]c1=O	-	HXB2	ELISA	0.032 µM
CC(=O)O[C@H]1CC[C@@]2(C)C(CC[C@@]3(C)C4CC[C@@]5(C)CCC(C)(C)C[C@H]5C4=CCC32)C1(C)C	-	-	RT activity / nucleotide incorporation / fluorescence	>100 µM
N#Cc1ccc(NC(=S)N[C@@H]2[C@@H]3COc4c(F)ccc(F)c4[C@@H]32)nc1	K103N	-	scintillation proximity / radiometric	0.0087 µM
O=C(/C=C/c1ncc(-c2cccnc2)cn1)Nc1cc(-c2ccc3c(c2)CCCC3)[nH]n1	K103N	NL4-3	RT activity / nucleotide incorporation / luminescence	0.16 µM
COc1ccccc1C(=O)N1CCN(C(=O)c2cc(O)c(O)c(O)c2)CC1	-	BH10	ELISA / nucleotide incorporation	>50 µM
Cc1cn([C@H]2C[C@H](N=[N+]=[N-])[C@@H](CP(=O)(O)OP(=O)(O)C(F)(F)P(=O)(O)O)O2)c(=O)[nH]c1=O	-	-	fluorescence	>10 µM
C#Cc1ccc(Nc2nccc(Oc3c(C)cc(-c4cn(Cc5ccccc5)nn4)cc3C)n2)cc1	-	-	RT activity / ELISA	0.18 µM
Cc1c(C(=O)N(C)Cc2cccnc2)[nH]c(C(N)=O)c1S(=O)(=O)c1ccccc1	WT	NL4-3	RT activity / nucleotide incorporation / luminescence	0.052 µM
COC(=O)[C@@H](Cc1c[nH]c2ccccc12)NC(=O)OC[C@H]1O[C@@H](n2cc(C)c(=O)[nH]c2=O)C[C@@H]1N=[N+]=[N-]	-	-	radiometric	>100 µM
COC(=O)c1ccc(C(=O)N2CCN(C(=O)c3cc(O)c(O)c(O)c3)CC2)cc1	-	BH10	ELISA / nucleotide incorporation	>50 µM
C#Cc1ccc(Nc2nccc(Oc3c(C)cc(-c4cn(-c5ccc(C(=O)OC)cc5)nn4)cc3C)n2)cc1	-	-	RT activity / ELISA	0.06 µM
COC(=O)[C@H](Cc1c[nH]c2ccccc12)NP(=O)(O)OC[C@H]1O[C@@H](n2cc(C)c(=O)[nH]c2=O)C[C@@H]1N=[N+]=[N-]	-	-	radiometric	>100 µM
O=C(/C=C/c1ncccn1)Nc1cc(-c2ccc3c(c2)CCCC3)[nH]n1	WT	NL4-3	RT activity / nucleotide incorporation / luminescence	0.54 µM
COc1ccc2c(c1)N(C(=O)OC(C)C)[C@@H](CSC)C(=S)N2	RT-Y181C G190E	-	scintillation proximity / radiometric	>29 µM
O=C1CSC2(CCCCC2)N1c1ccccn1	-	-	ELISA	>10 µg/mL
CCc1c([Se]c2ccccc2)n(COCc2ccccc2)c(=O)[nH]c1=O	RT-T181C	-	RT activity	2.4 µM
C#Cc1ccc(Nc2nccc(Oc3c(C)cc(-c4cn(CC(=O)OC)nn4)cc3C)n2)cc1	-	-	RT activity / ELISA	0.39 µM
CS(=O)(=O)N1CCN(C(=O)c2cc(O)c(O)c(O)c2)CC1	-	BH10	ELISA / nucleotide incorporation	>50 µM
C=C1[C@H](CO)[C@@H](O)C[C@@H]1n1cnc2c(=O)[nH]c(N)nc21	-	-	RT activity / ELISA	1.35 µM
CNC(=O)[C@H](Cc1c[nH]c2ccccc12)NC(=O)OC[C@H]1O[C@@H](n2cc(C)c(=O)[nH]c2=O)C[C@@H]1N=[N+]=[N-]	-	-	radiometric	>100 µM
CC(C)=CCOc1cc(NC(=S)c2ccoc2C)ccc1Cl	RT-L74V	-	-	2 µM
O=C1CSC(c2c(F)cccc2F)N1Cc1ccco1	-	-	ELISA	>10 µg/mL
C=C(C)[C@@H]1CC[C@]2(C)CCC3(C)[C@H](CC[C@@H]4[C@@]5(C)CC[C@H](O)C(C)(C)[C@@H]5CC[C@]43C)[C@@H]12	-	-	RT activity / nucleotide incorporation / fluorescence	>100 µM
Cc1nc(N2C(=O)CSC2c2c(F)cccc2Cl)ccc1Br	-	-	ELISA	<10 µg/mL
Cc1cc2c(C(C)C)c(O)c(O)c(C=N)c2c(O)c1-c1c(C)cc2c(C(C)C)c(O)c(O)c(C=N)c2c1O	-	LAV	HPLC	2.1 µM
C#Cc1ccc(Nc2nccc(Oc3c(C)cc(-c4cn(CCC(=O)OC)nn4)cc3C)n2)cc1	-	-	RT activity / ELISA	0.14 µM

3 of the rows above, restated:

compound,mutations,strain,method,value
O=C(/C=C/c1ncc(-c2cccnc2)cn1)Nc1cc(-c2ccc3c(c2)CCCC3)[nH]n1,K103N,NL4-3,RT activity / nucleotide incorporation / luminescence,0.16 µM
C=C(C)[C@@H]1CC[C@]2(C)CC[C@]3(C)[C@H](CC[C@@H]4[C@@]5(C)CC[C@H](OC(C)=O)C(C)(C)[C@@H]5CC[C@]43C)[C@@H]12,-,-,RT activity / nucleotide incorporation / fluorescence,>100 µM
Cc1cc(S(N)(=O)=O)ccc1NC(=O)COc1ccc(Cl)cc1C(=O)c1cc(Cl)cc(C#N)c1,-,WT,fluorescence,0.0018 µM